A mixed list of measured activities; the numbers were collected in NIAID ChemDB.

ICn: concentration for n% inhibition. MIC50, MIC90 and the like: level of inhibition, or share of isolates inhibited. Lines come from different laboratories, so protocols vary. Blank or dashed fields: not listed here. ECn: concentration that inhibits the pathogen or its effect by n%. Inhibition is in % at the dose shown (toxicity tests: loss of growth or viability). Fold resistance: result on the changed form divided by that on wild type.

smiles	strain	mutations	test	measure	read by	species	target	cells	tested at	result
O=C(Nc1nnc(NCCCNC2CCCCC2)s1)c1c(Cl)cccc1Cl	-	-	target	IC50	-	Human cytomegalovirus	Polymerase	-	-	<25 µM
C#CC[C@@H](C(=O)N[C@H](/C=C/C(=O)OCC)C[C@@H]1CCNC1=O)n1cccc(NC(=O)c2cc(C)on2)c1=O	Serotype 52	-	culture	inhibition	cytopathic effect / XTT	Rhinovirus	-	H1-HELA	0.016 µM	90%
CCOC(=O)Nc1cc2c(c(N)n1)N=C(c1ccc(OC)c(OC)c1)CO2	-	-	culture	inhibition	-	Encephalitozoon intestinalis	-	RK-13	0.001 µg/mL	2.9%
CCN(C(=O)OCc1ccccc1)C1CCN(CC[C@](C)(CN(C)S(=O)(=O)c2ccccc2)c2ccccc2)CC1	-	CCR5-Y37A	target	IC50	radiometric	-	CCR5	-	-	0.0029 µM
CCO/N=C/c1ccc(OCCC2CCN(c3ccc(C)nn3)CC2)cc1	FO2-2513 (ICAM-1 receptor group 69)	-	culture	EC50	neutral red	Rhinovirus	-	KB	-	0.054 µM
COc1ccc(CNc2nnc(NC(=O)c3ccc4c(c3)C(=O)OC4=O)s2)cc1OC	-	-	target	IC50	-	Human cytomegalovirus	Polymerase	-	-	<25 µM
O=C(C1CCCCC1)N1C[C@H](CN2CCC(c3ccccc3)CC2)[C@@H](c2ccccc2)C1	-	CCR5-Y37A	target	fold resistance	radiometric	-	CCR5	-	-	5.65
CC(C)c1cc(C(C)C)c(C(=O)Nc2nnc(NCCC#N)s2)c(C(C)C)c1	-	-	target	IC50	-	Human cytomegalovirus	Polymerase	-	-	>25 µM
CC(C)C(=O)N1C[C@H](CN2CCC(c3ccccc3)CC2)[C@@H](c2ccccc2)C1	-	CCR5-E283A	target	fold resistance	radiometric	-	CCR5	-	-	>83.3
CCCCCCCC/C=C/CCCCCCCC(=O)Nc1nnc(NCCc2cnc[nH]2)s1	-	-	target	IC50	-	Human cytomegalovirus	Polymerase	-	-	>25 µM
Cc1cn([C@H]2C=C[C@@H](COP(=O)(O)OP(=O)(O)OP(=O)(O)O)O2)c(=O)[nH]c1=O	-	RT-N137A	target	IC50	nucleotide incorporation / radiometric	HIV	Reverse transcriptase	-	-	0.21 µM
O=C(Nc1nnc(NCCCNC2CCCCC2)s1)c1ccc(S(=O)(=O)F)cc1	-	-	target	IC50	-	Human cytomegalovirus	Polymerase	-	-	>25 µM
CC(C)=CCOc1cc(NC(=S)c2ccoc2C)ccc1Cl	-	RT-P95A	target	IC50	nucleotide incorporation / radiometric	HIV	Reverse transcriptase	-	-	0.014 µM
Cc1ccnc2c1NC(=O)c1cccnc1N2C1CC1	-	RT-L74V Y181C	culture	EC95	-	HIV-1	-	MT-4	-	>3 µM
C[C@H](Cc1ccc(O)c(O)c1)[C@@H](C)Cc1ccc(O)c(O)c1	CCC 122-2000	-	culture	MIC100	broth dilution	Candida colliculosa	-	-	-	250 µg/mL
Cc1cn([C@@H]2O[C@H](CO[Si](C)(C)C(C)(C)C)C3(OS(=O)(=O)C=C3N)[C@H]2O[Si](C)(C)C(C)(C)C)c(=O)n(C)c1=O	-	RT-N137A	target	fold resistance	nucleotide incorporation / radiometric	HIV	Reverse transcriptase	-	-	0.56

A second listing of 2 rows from above:

smiles,strain,mutations,test,measure,read by,species,target,cells,tested at,result
O=C(Nc1nnc(NCCCNC2CCCCC2)s1)c1ccc(S(=O)(=O)F)cc1,-,-,target,IC50,-,Human cytomegalovirus,Polymerase,-,-,>25 µM
CCOC(=O)Nc1cc2c(c(N)n1)N=C(c1ccc(OC)c(OC)c1)CO2,-,-,culture,inhibition,-,Encephalitozoon intestinalis,-,RK-13,0.001 µg/mL,2.9%